This note sets out measurements from patent US20160101106A1, “METHODS FOR TREATING HCV INFECTION” (Inhibikase Therpeutics, Inc., priority 2013, published 2016).

SMILES strings stand for the structures.

The subject of this data set is HCVpp, Genotype 1b. Format: cell-based, HCV. Conditions: ratio of EC50 and CC50 (cytotoxicity in absence of virus), > = lower limit, highest concentration tested in parentheses.
For `CC(C)(C)c1nc(-c2cccc(NS(=O)(=O)c3c(F)cccc3F)c2F)c(-c2ccnc(N)n2)s1` [GSK2118436/dabrafinib], the TI is 1 (5 μM).
With `CNC(=O)c1cc(Oc2ccc(NC(=O)Nc3ccc(Cl)c(C(F)(F)F)c3)cc2)ccn1` [sorafenib], the TI was >2.8 (5 μM).
With `CCCS(=O)(=O)Nc1ccc(F)c(C(=O)c2c[nH]c3ncc(-c4ccc(Cl)cc4)cc23)c1F` [Zelboraf/PLX4032], the TI is reported as 1 (5 μM).
Turning to `Cn1c(Nc2ccc(C(F)(F)F)cc2)nc2cc(Oc3ccnc(-c4ncc(C(F)(F)F)[nH]4)c3)ccc21` [Raf265], the TI is listed as >5.6 (5 μM).
